Pooled drug test results. Numbers come from NIAID ChemDB, via PubChem.

Common to all: toxicity to cultured cells; cells: 2.2.15; measure: CC50

CCn is the concentration with n% toxicity to the cells. Conditions beyond the fields shown may differ between rows.

CCOC(=O)c1c(CS(=O)c2ccccc2)n(C)c2cc(Br)c(O)c(CN(C)C)c12 ; result: 96.23 µg/mL
CCC(c1nnc(SCCN2CCN(c3ncccn3)CC2)o1)S(=O)(=O)c1ccccc1 ; result: >10 µM
COC(=O)[C@H](C)NP(=O)(OC[C@H]1C/C1=C/n1cnc2c(N)nc(N)nc21)Oc1ccccc1 ; result: 45 µM
CO[C@@H]1C[C@H](n2ccc3c(N)ncnc32)[C@@H](O)[C@H]1O ; result: 666 µg/mL
CCOC(=O)c1c(CS(=O)c2ccccc2)n(C)c2cc(Br)c(O)c(Cn3ccnc3C)c12 ; result: 99.21 µg/mL
CCCCSc1nnc(CS(=O)(=O)c2ccccc2)o1 ; result: >1.5 µM
COc1ncnc2c1ncn2O[C@H]1CS[C@@H](CO)O1 ; result: >100 µg/mL
O=c1[nH]c(=O)n([C@H]2O[C@@H](CO)[C@H](O)[C@H]2F)cc1C(F)(F)F ; result: >200 µM
CCC(c1nnc(SCCN2CCN(c3ccccc3OC)CC2)o1)S(=O)(=O)c1ccccc1 ; result: >40 µM
CCOC(=O)c1c(CS(=O)c2ccc(F)cc2)n(C)c2cc(Br)c(O)c(CN3CCCC3)c12 ; result: 347 µg/mL
OC[C@H]1O[C@H](On2cnc3c(Cl)ncnc32)CS1 ; result: >100 µg/mL
O=c1[nH]c(=O)n([C@H]2O[C@@H](CO)[C@H](O)[C@H]2F)cc1Cl ; result: >200 µM
O=C(N/C(C(=O)N1CCCCC1)=C(/Cl)c1ccccc1)c1ccccc1 ; result: >81 µM
Nc1nc(=O)n([C@H]2O[C@@H](CO)[C@H](O)[C@H]2F)cc1I ; result: >200 µM
CCOC(=O)c1c(CS(=O)c2ccc(F)cc2)n(C2CC2)c2cc(Br)c(O)c(CN=C(N)N)c12 ; result: 18.52 µg/mL
Nc1ncnc2c1ncn2C[C@@H](CO)OCP(=O)(O)O ; result: >300 µM
CCOC(=O)c1c(CS(=O)c2ccc(F)c(F)c2)n(C2CC2)c2cc(Br)c(O)c(Cn3ccnc3)c12 ; result: 21.11 µg/mL
COC(=O)C(Cc1c[nH]c2ccccc12)NP(=O)(O)OCC1C/C1=C/n1cnc2c(N)ncnc21 ; result: 91 µM
O=C(CSc1nnc(CS(=O)(=O)c2ccccc2)o1)c1ccc(Cl)cc1 ; result: >1.5 µM
COC(=O)[C@H](C)NP(=O)(OC[C@H]1C/C1=C/n1cnc2c(OC)nc(N)nc21)Oc1ccccc1 ; result: 2.2 µM
Nc1ncnc2c1ccn2[C@H]1C[C@@H](O)[C@H](O)[C@@H]1O ; result: 277 µg/mL
CCOC(=O)c1c(CS(=O)c2ccc(F)c(F)c2)n(C)c2cc(Br)c(O)c(Cn3ccnc3C)c12 ; result: 40 µg/mL
C#Cc1cn([C@H]2O[C@@H](CO)[C@H](O)[C@H]2F)c(=O)[nH]c1=O ; result: >200 µM
Nc1nc2c(ncn2O[C@H]2CO[C@@H](CO)O2)c(=O)[nH]1 ; result: >100 µg/mL
CCC(c1nnc(SCCN2CCN(c3ccccn3)CC2)o1)S(=O)(=O)c1ccccc1 ; result: >20 µM
O=c1[nH]c(=O)n([C@H]2O[C@@H](CO)[C@H](O)[C@H]2F)cc1Br ; result: >200 µM
CCC(c1n[nH]c(=S)o1)S(=O)(=O)c1ccccc1 ; result: >7.5 µM
O=c1[nH]cnc2c1ncn2O[C@H]1CO[C@@H](CO)O1 ; result: >100 µg/mL
COC(=O)[C@H](C)NP(=O)(OCC1C/C1=C/n1cnc2c(N)ncnc21)Oc1ccccc1 ; result: 0.3 µM
CCOC(=O)c1c(CS(=O)c2ccc(F)cc2)n(C)c2cc(Br)c(O)c(CN3CCOCC3)c12 ; result: >500 µg/mL
CCCCCCCCCCCCCCCCOCCCOP(=O)(O)CO[C@H](CO)Cn1cnc2c(N)ncnc21 ; result: >300 µM
Nc1nc(=O)n([C@H]2O[C@@H](CO)[C@H](O)[C@H]2F)cc1Br ; result: >200 µM
COc1ncnc2c1ncn2O[C@H]1CO[C@@H](CO)O1 ; result: >100 µg/mL
COC(=O)[C@H](C)NP(=O)(OC[C@@H]1C[C@]12C[C@@H]2n1cnc2c(N)ncnc21)Oc1ccccc1 ; result: 27 µM
COc1ncnc2c1ncn2O[C@@H]1CO[C@@H](CO)O1 ; result: >100 µg/mL
O=C1NNC(=O)c2c(ncn2[C@@H]2O[C@H](CO)[C@@H](O)[C@H]2O)N1 ; result: 1844 µM
Cc1ccc(O)c(C(=O)Nc2ncc(Cl)s2)c1 ; result: >100 µM
Nc1nc(=O)n([C@H]2O[C@@H](CO)[C@H](O)[C@H]2F)cc1Cl ; result: >200 µM

Repeating the final 4 entries:

smiles | result
COc1ncnc2c1ncn2O[C@@H]1CO[C@@H](CO)O1 | >100 µg/mL
O=C1NNC(=O)c2c(ncn2[C@@H]2O[C@H](CO)[C@@H](O)[C@H]2O)N1 | 1844 µM
Cc1ccc(O)c(C(=O)Nc2ncc(Cl)s2)c1 | >100 µM
Nc1nc(=O)n([C@H]2O[C@@H](CO)[C@H](O)[C@H]2F)cc1Cl | >200 µM